Measurements taken from publication PMC3972754 (European biophysics journal : EBJ, 2013).

System: N[C@@H](Cc1ccccc1)C(=O)O
Test: purified protein
Settings: 20 °C, 0.1 M Na-HEPES pH 7.4, O2 saturated, FeSO4, 350 µM DMPH4

**Q.** How did the Km turn out when “cPAH (phenylalanine hydroxylase from Chromobacterium violaceum) (Chromobacterium violaceum ATCC 12472; F258A)” was run?
**A.** Its Km is 467.5 ± 99.6 µM.

**Q.** What about the kcat of the same substance?
**A.** Its kcat is 10.9 s⁻¹.

**Q.** And the kcat/Km?
**A.** The kcat/Km was 14000 M⁻¹ s⁻¹.
